Numbering of substitutions follows the chain as printed. Human monoclonal antibodies against the spike receptor-binding domain (heavy:light variable regions). IC50 against pseudoviruses bearing the spike of naturally observed variants; lower = stronger; >10 µg/ml means not reached at the top dose. No active / inactive call. The stated detection limit is 0.0005 µg/ml; values near or below 0.001 µg/ml lie at the floor of the assay.
B1: BD56-142 (protein)
chain 1: EVQLEESGGGLVQPGGSLRLSCAASGFTFSTYDMHWVRQVTGKGLEWVSTIGTAGDTYYPGSVKGRFTVSRENAKNSLYLQMNSLRTGDTAVYYCARVEYTYDNLYWYIDLWGRGTLVTVSS
chain 2: DIQMTQSPSSLSASVGDRVTITCRASQSVGRYLNWYQQKPGKAPKLLIYTASSLQTGVPSRFSGSGSGTDFTLTISSLQPEDFATYYCQQSYTNPHYSFGLGTKLEVK
B2: BD56-146 (protein)
chain 1: EVQLVESGGGFVQPGRSLRLSCAASGFIFDDYAMHWVRQTPGKGLEWVSGITWNGGTIGYADSVKGRFFISRDNAKNSLYLQMIRLRAEDTALYYCAKDLRRGPSLTTEEYFFHSWGQGTLVIVSS
chain 2: SYVLTQPLSVSVAPGKTARITCGGNNIGSKTVHWYHQKPGQAPVLVVYHNSDRPSGIPERFSGSNSGNTATLTISRVEAGDEADYYCQMWDGTTDHVVFGGGTKLTVL
B3: BD56-118 (protein)
chain 1: QVQLVQSGAEVKKPGSSVKVSCKASGGTLSSYAIRWVRQAPGQGLEWMGMIIPIFGTTNYAQKFQGRVTITADESTSTVYMELSSLRSEDTAVYYCARDLEHSPLYGMDVWGQGTTVTVSS
chain 2: DIQMTQSPSSLSASIGDRVTITCRASQSISRYLNWYQQKPGKAPKLLIFAASSLQSGVPSKFSGGGSGTDFTLTISSLQPEDFATYFCQQTYSSPHTFGRGTKVEIK
B4: BD56-141 (protein)
chain 1: EVQLVESGGGLVQPGGSLRLSCAASGFTFPSYALSWVRQAPGKGLEWVSALSVSGDNTYYADSVKGRFTISRDNSKSTLYLQMNSLRAEDTAFYYCALIPDRGRWLNLNWFDPWGQGTLVTVSS
chain 2: EIVLTQSPDTLSLSPGERATLSCRASQTVSGYLAWYQQRPGQAPRLLIYDASNRAPGIPTRFSGSGSGTDFTLTISSLEPEDFAVYYCQQSSSFGPGTKVDIK
B5: BD56-137 (protein)
chain 1: QVQLVQSGSEVKKPGASVKVSCKASGYTFTDYAMNWVRQAPGQGLEWMGWINTNTGNPTYAQGFTGRFVFSLDTSVSTAYLQISNLKAEDTAVYYCARIWSYWNDASDAFDIWGQGTMVTVSS
chain 2: QSALTQPASVSGSPGQSITISCTGTSSTVGSYNLVSWFQQHPGKAPKLIIYEGTKRPSGVSSRFSGSKSGNTASLTISGLQAGDEADYYCCSYATTTTWVFGGGTMLTVL
B6: BD56-131 (protein)
chain 1: QVQLQESGPGLVKPSETLSLKCLVSGFSISSGFYGGYIRQPPGKGLEWIGSFYHSGSTYYNPSLKTRVTILVDASKNQFSLKLTSVTAADTAVYYCARLMHPDDSSLSVWFDPWGKGTLVTVST
chain 2: SYDLTQPPSVSVSPGQTAIITCSGYKLGDKYVSWYQQKPGQSPVLVIYQDSKRPSGIPERFSGSNSGNTATLTISGTQAMDEADFYCQTWDSNTVVFGRGTKVTVL
B7: BD56-148 (protein)
chain 1: EVQVVESGGGLVKPRGSLRLSCAASGFTFSDAWMNWVRQAPGKGLEWVGHIKSETDGGTTDYAAPVKGRFTILRDDSKNTVYLQMNSLKTEDTAVYYCTVSDVLRYYDYGLDVWGQGTTVTVSS
chain 2: DIQMTQSPSTLSASVGDRVIITCRASQSISNWLAWYQQKPGKAPKLLIYKASSLQSGVPSRFSGSGSGTEFTLTISSLQPDDFATYYCQQYNSYLYTFGQGTKLEI
B8: BD56-130 (protein)
chain 1: EVQLVESGGGLAQPGGSLRLSCAASGFTFSNYDMHWVRQATGKGLEWVSGIGTSGDTYYEGSVKGRFTISRENAKNSLYLQMNSLRAGDTAVYFCARGDASGYIYYFDYWGQGTLVTVSS
chain 2: DIQMTQSPSSLSASVGDRVTLTCRASQSIGTYLNWYQQKPGKAPKLLIFAASSLRSGVPSRFSGSGSGTDFTLSISSLQPEDFATYHCQQSYSSPPWTFGQGTKVEMK
B9: BD56-109 (protein)
chain 1: QVQLVESGGGVVQPGRSLRLSCAASGFTFSNYGIHWVRQAPGKGLEWVAVISDDGSYRDYADSVKGRFTISRDNPKNTVYVQMNSLRLEDTAVYYCARDEGAMVTHFDFWGQGTLVTVSS
chain 2: DIQMTQSPSSLSASVGDRVTITCRASQSIRGYLSWYQQKPGKAPNLLIYAASTLQSGVPSRFSGSGSGTDFTLTISSLQPEDFATYYCQQSYNTPPWTFGQGTKVEIK
B10: BD56-120 (protein)
chain 1: QVHLVESGGGVVHPGRSLRLSCAASGFTFSNYGMHWVRQAPGKGLEWVAAIWYDGSNKYYADSVKGRFTISRDNSKNTLYLQMNSLRAEDTAVYHCARDFAVDNSMVTWFDPWGQGTLVTVSS
chain 2: B9 chain 2 with T22S, R30S, G31N, S34Y, N45K, T53S, S65R, S77G, A84G
B11: BD56-150 (protein)
chain 1: QVHLVESGGSVVQPGKSLRLSCAASGFNFNLYGMHWVRQAPGKGLEWVSLIWYDGTNEYYGDSVKGRFTISRDNSKNTLYLQINSLRVEDTAVYYCARDQASYDVVAGTSPYFDYWGQGTLVTVSS
chain 2: YELTQPPSVSVSPGQTARITCSGDILSSQNACWYQQKPGQAPVLMIYKNTERPSGIPERFSGSSSGTTVTLTVSGVQAEDEADYYCQSTDTSATYAVFGGGTQLTVL
B12: BD56-136 (protein)
chain 1: QVQLVQSGAEVKKPGASVKVSCKASGYTFTNYYTHWVRQAPGQGLEWMGIINPSGGGTSYAPKFQGRVTMTRDPSTSTVYMALSSLRSEDTAVYYCARDSSEYNSNYPNAFDIWGQGTMVTVSS
chain 2: QSALTQPASVSGSPGQSVTISCAGTSGDIGGYNYVSWYQQHPGKAPKVIIYDVSKRPSGVSNRFSGSKSGNTASLTISGLQAEDEADYYCSSYTSTSTYLFGTGTKVTVL

Target: SARS-CoV-2 Omicron BA.1 spike pseudovirus
Assay: pseudovirus neutralization IC50; higher = weaker neutralization
Experimental: (§1)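 Single-round VSV luciferase pseudovirus mixed with antibody dilutions for 1 h and put on Huh-7 cells for about a day; IC50 from the dose curve.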

First: B1
Second: B2
The “pseudovirus neutralization IC50” value of the first is higher: > 10 µg/mL for the first, 0.0187 µg/mL for the second.

Going from B3 to B4, the “pseudovirus neutralization IC50” value rises from 0.584 µg/mL to > 10 µg/mL.

Compared with B5, B6 is higher in “pseudovirus neutralization IC50” value: 1.92 µg/mL for the first, > 10 µg/mL for the second.

Going from B7 to B8, the “pseudovirus neutralization IC50” value rises from 1.31 µg/mL to > 10 µg/mL.

First: B9
Second: B10
The “pseudovirus neutralization IC50” value of the first is lower: 3.66 µg/mL for the first, > 10 µg/mL for the second.

Compared with B11, B12 is higher in “pseudovirus neutralization IC50” value: 0.689 µg/mL for the first, > 10 µg/mL for the second.

Target: SARS-CoV-2 Omicron BA.2 spike pseudovirus
Assay: as above
Experimental: as §1

Going from B1 to B2, the “pseudovirus neutralization IC50” value falls from > 10 µg/mL to 0.0179 µg/mL.

Compared with B3, B4 is higher in “pseudovirus neutralization IC50” value: 0.479 µg/mL for the first, > 10 µg/mL for the second.

First: B5
Second: B6
The “pseudovirus neutralization IC50” value of the first is lower: 1.93 µg/mL for the first, > 10 µg/mL for the second.

Going from B7 to B8, the “pseudovirus neutralization IC50” value rises from 2.59 µg/mL to > 10 µg/mL.

Compared with B9, B10 is higher in “pseudovirus neutralization IC50” value: 3.54 µg/mL for the first, > 10 µg/mL for the second.

First: B11
Second: B12
The “pseudovirus neutralization IC50” value of the first is lower: 0.592 µg/mL for the first, > 10 µg/mL for the second.

Target: SARS-CoV-2 Omicron BA.2.75 spike pseudovirus
Assay: as above
Experimental: as §1

Compared with B1, B2 is lower in “pseudovirus neutralization IC50” value: > 10 µg/mL for the first, 0.00998 µg/mL for the second.

Compared with B3, B4 is higher in “pseudovirus neutralization IC50” value: 0.548 µg/mL for the first, > 10 µg/mL for the second.

First: B5
Second: B6
The “pseudovirus neutralization IC50” value of the first is lower: 1.69 µg/mL for the first, > 10 µg/mL for the second.

Going from B7 to B8, the “pseudovirus neutralization IC50” value rises from 1.13 µg/mL to > 10 µg/mL.

Compared with B9, B10 is higher in “pseudovirus neutralization IC50” value: 3.72 µg/mL for the first, > 10 µg/mL for the second.

First: B11
Second: B12
The “pseudovirus neutralization IC50” value of the first is lower: 0.424 µg/mL for the first, > 10 µg/mL for the second.

Target: SARS-CoV-2 Omicron BA.5 spike pseudovirus
Assay: as above
Experimental: as §1

Compared with B1, B2 is lower in “pseudovirus neutralization IC50” value: > 10 µg/mL for the first, 1.29 µg/mL for the second.

B3 and B4 cannot be ordered by “pseudovirus neutralization IC50” value: > 10 µg/mL for the first, > 10 µg/mL for the second.

First: B5
Second: B6
The “pseudovirus neutralization IC50” value of the first is lower: 1.48 µg/mL for the first, > 10 µg/mL for the second.

Compared with B7, B8 is higher in “pseudovirus neutralization IC50” value: 1.33 µg/mL for the first, > 10 µg/mL for the second.

Compared with B9, B10 is higher in “pseudovirus neutralization IC50” value: 3.74 µg/mL for the first, > 10 µg/mL for the second.

First: B11
Second: B12
The “pseudovirus neutralization IC50” value of the first is lower: 0.658 µg/mL for the first, > 10 µg/mL for the second.

Target: SARS-CoV-2 Omicron BQ.1.1 spike pseudovirus
Assay: as above
Experimental: as §1

B1 and B2 cannot be ordered by “pseudovirus neutralization IC50” value: > 10 µg/mL for the first, > 10 µg/mL for the second.

B3 and B4 cannot be ordered by “pseudovirus neutralization IC50” value: > 10 µg/mL for the first, > 10 µg/mL for the second.

B5 and B6 cannot be ordered by “pseudovirus neutralization IC50” value: > 10 µg/mL for the first, > 10 µg/mL for the second.

Compared with B7, B8 is higher in “pseudovirus neutralization IC50” value: 4.89 µg/mL for the first, > 10 µg/mL for the second.

Compared with B9, B10 is higher in “pseudovirus neutralization IC50” value: 6.71 µg/mL for the first, > 10 µg/mL for the second.

Compared with B11, B12 is higher in “pseudovirus neutralization IC50” value: 1.47 µg/mL for the first, > 10 µg/mL for the second.

Target: SARS-CoV-2 Omicron XBB spike pseudovirus
Assay: as above
Experimental: as §1

B1 and B2 cannot be ordered by “pseudovirus neutralization IC50” value: > 10 µg/mL for the first, > 10 µg/mL for the second.

B3 and B4 cannot be ordered by “pseudovirus neutralization IC50” value: > 10 µg/mL for the first, > 10 µg/mL for the second.

B5 and B6 cannot be ordered by “pseudovirus neutralization IC50” value: > 10 µg/mL for the first, > 10 µg/mL for the second.

Going from B7 to B8, the “pseudovirus neutralization IC50” value rises from 5.73 µg/mL to > 10 µg/mL.

Going from B9 to B10, the “pseudovirus neutralization IC50” value rises from 7.6 µg/mL to > 10 µg/mL.

First: B11
Second: B12
The “pseudovirus neutralization IC50” value of the first is lower: 1.36 µg/mL for the first, > 10 µg/mL for the second.

Target: SARS-CoV-2 early D614G spike pseudovirus
Assay: as above
Experimental: as §1

Going from B1 to B2, the “pseudovirus neutralization IC50” value falls from > 10 µg/mL to 0.00338 µg/mL.

First: B3
Second: B4
The “pseudovirus neutralization IC50” value of the first is lower: 0.202 µg/mL for the first, > 10 µg/mL for the second.

Compared with B5, B6 is higher in “pseudovirus neutralization IC50” value: 1.36 µg/mL for the first, > 10 µg/mL for the second.

Compared with B7, B8 is higher in “pseudovirus neutralization IC50” value: 5.17 µg/mL for the first, > 10 µg/mL for the second.

Going from B9 to B10, the “pseudovirus neutralization IC50” value rises from 1.64 µg/mL to > 10 µg/mL.

B11 and B12 cannot be ordered by “pseudovirus neutralization IC50” value: > 10 µg/mL for the first, > 10 µg/mL for the second.

Reference: the supplement of paper PMC9931576
